Measurements as given in BindingDB's records for US10087178 (Japan Tobacco, 2018).

Target: Protein Nef (Human immunodeficiency virus type 1 group M subtype B (isolate BRU/LAI), UniProt P03406)
Assay: Measurement of Antiviral (HIV-1) Activity

Which EC50 does the source give for `COC[C@H]1C[C@]2(CN(C)C(=O)c3c(OC(=O)N(C)C)c(=O)c(C(=O)NCc4cccc(Cl)c4F)cn32)C1` here?
The EC50 was 110 nM.
